The assay has as its target Beta-lactamase (Escherichia coli (strain K12)) (UniProt P00811). Description: Promiscuous and Specific Inhibitors of AmpC Beta-Lactamase (assay without detergent). Note: % of control where 0% means no effect. As to conditions: AmpC nitrocefin hydrolysis, absorbance 480 nm, no detergent. As for the experimental part:
NIH Molecular Libraries Screening Centers Network [MLSCN]
NIH Chemical Genomics Center [NCGC]
PI Name: Shoichet, Brian K.
This aggregation profiling approach exploits the sensitivity of aggregate formation to detergent. Inhibition of b-lactamase is measured in the presence and absence of 0.01% Triton X-100. See Pubchem assay "Promiscuous and Specific Inhibitors of AmpC Beta-Lactamase (assay with detergent)" for related screen. Compounds that inhibit only in the absence of detergent are considered likely promiscuous aggregators.
A screen of 1,030 compounds was performed in Brian Shoichet's lab in 96-well format. AmpC activity was measured by following the absorbance at 480 nm. Nitrocefin is a chromogenic substrate: while nitrocefin is yellow (lmax 390 nm), the product of its hydrolysis is red (lmax 486 nm, 17,000 M-1). AmpC beta lactamase was provided by Brian Shoichet and Brian Feng, UCSF.
NCGC Assay Protocol Summary:
20 mM phosphate buffer, pH 7.0
Triton X-100: No Detergent screen: 0.0001%, Detergent screen: 0.01%.
Buffer in columns 3 and 4 as negative control (no enzyme).
5.3 nM AmpC in columns 1, 2, 5-48. Titration of UCSF compound 9 control (from 10 mM, then 1:2) pin-transferred to column 2. Column 1 is neutral (100% activity).
Six uL of reagents were dispensed to 1536-well Greiner black clear bottom plates. Compounds and controls (23 nL) were transferred via Kalypsys PinTool. The plates were incubated for 15 min at room temperature, and then 2 uL of 800 uM solution of nitrocefin was added to start the reaction. The plates were immediately transferred to and read every 20 seconds for 4 min on ViewLux (Perkin-Elmer) High-throughput CCD imager using 480 nm absorbance protocol. During dispense, reagent bottles were kept submerged into 4 deg C water bath.
Keywords: NIH Roadmap, MLSCN, MLI, MLSMR, qHTS, NCGC, AmpC Beta-Lactamase, Aggregation.

Chains of the proteins cited; added tags and fusions are not shown.
UniProt P00811, whole entry: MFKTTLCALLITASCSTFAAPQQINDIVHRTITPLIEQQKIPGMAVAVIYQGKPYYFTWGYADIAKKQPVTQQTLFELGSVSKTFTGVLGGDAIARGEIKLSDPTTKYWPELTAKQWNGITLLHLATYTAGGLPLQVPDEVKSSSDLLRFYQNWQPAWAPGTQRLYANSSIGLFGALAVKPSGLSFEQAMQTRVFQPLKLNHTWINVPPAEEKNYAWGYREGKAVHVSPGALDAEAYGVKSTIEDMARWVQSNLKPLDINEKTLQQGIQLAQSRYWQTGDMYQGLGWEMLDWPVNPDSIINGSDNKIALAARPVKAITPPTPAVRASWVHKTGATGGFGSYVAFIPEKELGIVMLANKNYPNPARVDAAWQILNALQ

Setting [1] is: at 28.7 µM (top of the series) unless noted.

Structures are written as SMILES. The list shows a part of the results, in another mix than the full data. Activity calls are given as the source filed them. Calls come from the whole dose curve.

The values that follow come from PubChem BioAssay AID585 (National Center for Advancing Translational Sciences (NCATS), 2007).

For `O=P1(Nc2nc3ccc(Cl)cc3s2)COc2ccccc2O1` (centres undefined), the activity change, negative = inhibition under setting [1] was inactive: -10.8%.
On the same count and under the same terms, in the case of `CP(=O)(Nc1ccccc1F)Oc1ccccc1` (centres undefined) it was inactive: -17.6%.
Still for that read-out and setting: in the case of `COC(=O)c1cc2c(s1)N=C(c1ccccc1)N(C)P2(=O)N1CCOCC1` (centres undefined) it was inactive: 21.5%; in that of `Cc1cccc([N+](=O)[O-])c1[N+](=O)[O-]`, inactive: -9%.
Same read-out and setting: in the case of `CCC(C)(OO)OOC(C)(CC)OO` (centres undefined) it was inactive: 9.6%.
For the molecule `Cc1c([N+](=O)[O-])cccc1[N+](=O)[O-]`, under setting [1], the activity change, negative = inhibition is inactive: -4.8%.
On the same count and under the same terms, the result for `Cc1ccc([N+](=O)[O-])c([N+](=O)[O-])c1` reads inactive: -0.5%; that for `O=C(OC1CN2CCC1CC2)c1cccc(Cl)c1` (centres undefined), inactive: -5.9%; that for `CN(C)CCOC(=O)C(O)(c1ccccc1)C1CCCCC1` (centres undefined), inactive: 16.5%.
Consider `Cc1cc([N+](=O)[O-])cc([N+](=O)[O-])c1O`, for which the activity change, negative = inhibition under setting [1] is inactive: -8.1%.
The same measure, in the same setting: in the case of `[N-]=[N+]=Nc1ccc([As](=O)(O)O)cc1` it was inactive: -6.4% [at 5.75 µM]; in that of `CN1CCC[C@H](OC(=O)C(c2ccccc2)c2ccccc2)C1`, inactive: 0.7% [at 5.75 µM].
`CP(=O)(Nc1ccc2c(c1)OCCO2)Oc1ccccc1` (centres undefined): the activity change, negative = inhibition under setting [1] is inactive: 0%.
On the same count and under the same terms, in the case of `[NH4+].[O-][Cl+3]([O-])([O-])[O-]` it was inactive: -7.7%.
Still for that read-out and setting: the result for `C[C@@H](O)COc1ccc([As](=O)(O)O)cc1N` reads inactive: 4.9% [at 5.75 µM]; that for `Cc1ccccc1NP(C)(=O)Nc1ccccc1C`, inactive: 17.6%; that for `NNC(NN)NN.n1nc(-c2nn[nH]n2)n[nH]1`, inactive: -2.3% [at 5.75 µM].
Same read-out and setting: in the case of `O=P(Nc1nccs1)(c1ccccc1)c1ccccc1` it was inactive: -3.4%; in that of `CCOP(C)(=S)SCC(=O)NC(C)(CC)C(=O)O` (centres undefined), inactive: 1.4%; in that of `CCOP(=O)(CC)OCC`, inactive: -18.5%.
With `O=C(CO)Nc1ccc([As](=O)(O)O)cc1`, the activity change, negative = inhibition under setting [1] was inactive: 4.1% [at 5.75 µM].
On the same count and under the same terms, the result for `N#[O+].[C-]#N.[C-]#N.[C-]#N.[C-]#N.[C-]#N.[Fe+2].[Na+].[Na+]` reads inactive: -77.6%; that for `COc1ccccc1OP(C)(=O)Nc1c(C)n(C)n(-c2ccccc2)c1=O` (centres undefined), inactive: -16.3%.
In the case of `CCc1nc2c(n1)c1c(non1O)c1c2no[n+]1[O-]`, the activity change, negative = inhibition under setting [1] was inactive: -2.7%.
Still for that read-out and setting: the result for `CP(=O)(Oc1ccccc1)N1CCOC1=O` (centres undefined) reads inactive: 4.5%; that for `C/C1=C2N=C(/C=C3N=C(/C(C)=C4\[N-][C@@](C)([C@H]5N=C1[C@@](C)(CCC(=O)NC[C@H](C)OP(=O)([O-])O[C@@H]1[C@H](O)[C@H](n6cnc7cc(C)c(C)cc76)O[C@@H]1CO)[C@@H]5CC(N)=O)[C@](C)(CC(N)=O)[C@H]4CCC(N)=O)[C@@](C)(CC(N)=O)[C@@H]\3CCC(N)=O)C(C)(C)[C@@H]/2CCC(N)=O.[C-]#N.[Co+3]`, inactive: 8.7% [at 12.8 µM]; that for `CN(C(=O)Cc1ccccc1)[C@@H]1CC[C@@]2(CCCO2)C[C@H]1N1CCCC1`, inactive: 84.2%.
Still for that read-out and setting: the result for `Cc1nc2ccc3ccccc3c2o1.O=[N+]([O-])c1cc([N+](=O)[O-])c(O)c([N+](=O)[O-])c1` reads inactive: -10.6%.
Same read-out and setting: in the case of `[N-]=[N+]=NCC(O)CN=[N+]=[N-]` (centres undefined) it was inactive: 1.9% [at 5.75 µM].
Consider `C(Cc1nn[nH]n1)c1nn[nH]n1`, for which the activity change, negative = inhibition under setting [1] was inactive: -2.2% [at 5.75 µM].
The same measure, in the same setting: in the case of `COc1ccccc1OP(C)(=O)Nc1ccc(C)c(C)c1` (centres undefined) it was inactive: 32.8%; in that of `Cc1c2non([O-])c-2c(C)[n+](=O)[n+]1[O-]`, inactive: -17%; in that of `CP(=O)(Nc1ccccn1)Oc1ccccc1` (centres undefined), inactive: 5.3%.
Same read-out and setting: in the case of `NCC[C@@H](N)CSP(=O)(O)O` it was inactive: -0.9% [at 5.75 µM]; in that of `O=[N+]([O-])c1ccc(C[As](=O)(O)O)cc1`, inactive: 4.2% [at 5.75 µM].
On the same count and under the same terms, in the case of `O=[N+]([O-])[O-].[NH4+]` it was inactive: 0.4%; in that of `O=C(OC1CN2CCC1CC2)C12CC3CC(CC(C3)C1)C2` (centres undefined), inactive: 6.8%.
With `NC(=O)Nc1cc([As](=O)(O)O)cc(I)c1O`, the activity change, negative = inhibition under setting [1] is inactive: -2.8% [at 5.75 µM].
Same read-out and setting: in the case of `Cc1ccc(NP(C)(=O)Oc2ccccc2)c(C)c1` (centres undefined) it was inactive: 30.7%; in that of `COc1ccccc1OP(C)(=O)Nc1ccc(C)cc1` (centres undefined), inactive: 17.1%; in that of `[N-]=[N+]=NCC(N)=O`, inactive: 6.2% [at 5.75 µM].
The same measure, in the same setting: the result for `O=[As]c1ccc(S(=O)(=O)NCCO)cc1` (centres undefined) reads inactive: -2.8% [at 5.75 µM]; that for `CP(=S)(Nn1cnnc1)Oc1ccccc1` (centres undefined), inactive: -3.1%; that for `CN(N=O)C(=N)N[N+](=O)[O-]`, inactive: -9.6%.
On the same count and under the same terms, the result for `N1=C(c2nnc(-c3nn[nH]n3)nn2)NNN1` reads inactive: 0.8% [at 5.75 µM]; that for `CCOP(C)(=S)SCC(=O)NC(C)C(=O)O` (centres undefined), inactive: -9.2%; that for `COP1(=S)c2c(C)nn(CCC#N)c2N=C(c2ccc(F)cc2)N1C` (centres undefined), inactive: 42.6%.
As for `CP(=O)(NC(=O)Nc1ccccc1)Oc1ccccc1` (centres undefined), under setting [1], the activity change, negative = inhibition was inactive: -7.3%.
The same measure, in the same setting: in the case of `O=C(COc1ccccc1)OC1CN2CCC1CC2` (centres undefined) it was inactive: -4.2%.
Still for that read-out and setting: in the case of `O=C(O)[C@@H](O)c1ccc([As](=O)(O)O)cc1` it was inactive: 2.9% [at 5.75 µM]; in that of `Cc1nc2ccc3ccccc3c2s1.O=[N+]([O-])c1cc([N+](=O)[O-])c(O)c([N+](=O)[O-])c1`, inactive: -2.3%.
For `CN(CCCl)Cc1cc(Cl)c(NC2=NCCN2)c(Cl)c1`, the activity change, negative = inhibition under setting [1] is inactive: -5.2%.
On the same count and under the same terms, the result for `O=P1(Nc2ccccn2)COc2ccccc2OC1` reads inactive: -6.8%; that for `Clc1n[nH]nc1-c1nn[nH][15n]1`, inactive: 0.9%.
On the same count and under the same terms, in the case of `O=P1(Nc2ncccn2)COc2ccccc2OC1` it was inactive: -10.6%; in that of `O=P1(Nc2ccc(Br)cn2)COc2ccccc2OC1`, inactive: 2.1%.
Still for that read-out and setting: in the case of `Cc1nn(-c2ccccc2)c2c1P(=O)(N1CCOCC1)N(C)C(c1ccccc1)=N2` (centres undefined) it was inactive: 103%.
For the molecule `NC(=O)Nc1ccc([As](=O)(O)O)cc1`, the activity change, negative = inhibition runs as follows: (at 12.8 µM (top of the series)) inactive: -1.7%; (at 28.7 µM (top of the series)) inactive: 16.4%.
Consider `Cc1ccc([N+](=O)[O-])cc1[N+](=O)[O-]`, for which the activity change, negative = inhibition under setting [1] is inactive: 9.3%.
Same read-out and setting: the result for `CCOP1(=S)c2c(C)nn(CCC#N)c2N=C(c2ccc(F)cc2)N1C` (centres undefined) reads inactive: 72.6%.
The same measure, in the same setting: in the case of `O=[N+]([O-])c1cccc([N+](=O)[O-])c1` it was inactive: -8.5%; in that of `O=P(Nc1nccs1)(c1ccccc1)c1nc2ccccc2s1` (centres undefined), inactive: -2.1%; in that of `CCOP1(=S)c2c(C)nn(CCC#N)c2N=C(c2ccccc2F)N1C` (centres undefined), inactive: 76.9%.
Same read-out and setting: the result for `O=[As](O)(O)c1ccc([As](=O)(O)O)cc1` reads inactive: -3% [at 5.75 µM]; that for `Cc1ccc(C)c(NP(C)(=O)Oc2ccccc2)c1` (centres undefined), inactive: 27.2%.
Take `NS(=O)(=O)Cc1ccc([As](=O)(O)O)cc1`: the activity change, negative = inhibition under setting [1] is inactive: -0.3% [at 5.75 µM].
The same measure, in the same setting: the result for `O=C(CC(=O)c1ccccc1)O[C@H]1CN2CCC1CC2` reads inactive: 16% [at 5.75 µM].
On the same count and under the same terms, the result for `CN(C(=O)Cc1ccc(Cl)c(Cl)c1)[C@@H]1CC[C@@]2(CCCO2)C[C@H]1N1CCCC1` reads inactive: 15.4%.
